The target of the assay is p66/p51 HIV-1 RT (Human immunodeficiency virus type 1 group M subtype B, UniProt P04585). Briefly: Differential scanning fluorimetry (thermal stability of RT). It counts as binding. To be noted: increasing concentration of compound; 100 ng/µl HIV-1 RT. In general terms: Differential scanning fluorimetry follows unfolding on heating by fluorescence.

Regarding `CCOc1ccc(N2CC(C)CN3C2=NC2C3C(=O)N(CC(=O)OCc3ccccc3)C(=O)N2C)cc1` (stereo not shown), the “change of RT melting temperature (Tm)” value is given as “decreased the Tm”.

The record behind these values is PMC6211256, “From cycloheptathiophene-3-carboxamide to oxazinone-based derivatives as allosteric HIV-1 ribonuclease H inhibitors” (Journal of Enzyme Inhibition and Medicinal Chemistry, 2018).
